Results of unrelated studies side by side (data: NIAID ChemDB).

All rows: cytotoxicity tests; cells: Vero mammalian cells; read by: MTT; endpoint: CC50

CCn: concentration that lowers growth or viability of the cells by n%. Rows are shuffled and stem from different studies.

SMILES	value
CC1COc2c(N3CCN(C(=O)C4COc5ccccc5O4)CC3)c(F)c([N+](=O)[O-])c3c(=O)c(C(=O)O)cn1c23	113 µM
COc1ccc(CC2C3=C(CCCC3)CCN2c2c(F)c(N)c3c(=O)c(C(=O)O)cn(C4CC4)c3c2OC)cc1	114 µM
CC(C)(C)n1cc(C(=O)O)c(=O)c2cc([N+](=O)[O-])c(N3CCC(O)(c4ccc(Cl)cc4)CC3)cc21	>117.5 µM
C[C@H]1COc2c(N3CCC(O)(c4ccc(Cl)cc4)CC3)c(F)c([N+](=O)[O-])c3c(=O)c(C(=O)O)cn1c23	60.35 µM
COc1cc2c(cc1OC)CN(c1cc3c(cc1F)c(=O)c(C(=O)O)c1sc4ccccc4n13)CC2	>123.9 µM
O=C(O)c1cn(C2CC2)c2cc(N3CCC(O)(c4ccc(Cl)cc4)CC3)c([N+](=O)[O-])cc2c1=O	>137 µM
COc1c(N2CCSCC2)c(F)c([N+](=O)[O-])c2c(=O)c(C(=O)O)cn(C3CC3)c12	148 µM
CC1COc2c(N3CCN(C(=O)c4ccco4)CC3)c(F)c([N+](=O)[O-])c3c(=O)c(C(=O)O)cn1c23	64.25 µM
COc1c(N2CCNC(C)C2)c(F)cc2c(=O)c(C(=O)O)cn(C3CC3)c12	>155.3 µM
COc1c(N2CCN(Cc3ccc4c(c3)OCO4)CC2)c(F)c([N+](=O)[O-])c2c(=O)c(C(=O)O)cn(C3CC3)c12	116 µM
C[C@H]1COc2c(N3CCC(n4c(=O)[nH]c5cc(Cl)ccc54)CC3)c(F)cc3c(=O)c(C(=O)O)cn1c23	>122 µM
CC(C)(C)NC(=O)C1c2ccccc2CCN1c1cc2c(cc1F)c(=O)c(C(=O)O)c1sc3ccccc3n12	115 µM
COc1c(N2CC(C)OC(C)C2)c(F)cc2c(=O)c(C(=O)O)cn(C3CC3)c12	160 µM
O=C(O)c1c(=O)c2cc([N+](=O)[O-])c(N3CCC(O)(c4ccc(Cl)cc4)CC3)cc2n2c1sc1ccccc12	113.6 µM
COc1c(N2CCSCC2)c(F)cc2c(=O)c(C(=O)O)cn(C3CC3)c12	165.6 µM
O=C(O)c1cn(C2CC2)c2cc(N3CC(c4ccccc4)NC(c4ccc(Cl)cc4)C3)c(F)cc2c1=O	>117.5 µM
CC1COc2c(N3CCN(Cc4ccc5c(c4)OCO5)CC3)c(F)c([N+](=O)[O-])c3c(=O)c(C(=O)O)cn1c23	119 µM
O=C(O)c1c(=O)c2cc(F)c(N3CCC(N4CCCCC4)CC3)cc2n2c1sc1ccccc12	130.3 µM
COc1c(N2CCn3cc(C(=O)O)nc3C2)c(F)cc2c(=O)c(C(=O)O)cn(C3CC3)c12	141 µM
O=C(O)c1c(=O)c2cc([N+](=O)[O-])c(N3CCC4(CC3)OCCO4)cc2n2c1sc1ccccc12	129.8 µM
CN1CCN(c2cc3c(cc2F)c(=O)c(C(=O)O)cn3C2CC2)CC1c1ccccc1	>148.3 µM
C[C@H]1COc2c(N3CCC4(CC3)OCCO4)c(F)cc3c(=O)c(C(=O)O)cn1c23	155 µM

A second listing of 2 rows from above:

SMILES | value
O=C(O)c1cn(C2CC2)c2cc(N3CC(c4ccccc4)NC(c4ccc(Cl)cc4)C3)c(F)cc2c1=O | >117.5 µM
C[C@H]1COc2c(N3CCC(n4c(=O)[nH]c5cc(Cl)ccc54)CC3)c(F)cc3c(=O)c(C(=O)O)cn1c23 | >122 µM